Experimental data reported in PubChem BioAssay AID527 (NMMLSC, 2006).
The list shows a part of the results, in another mix than the full data. The source made the active and inactive calls.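 Rule for the calls: active = share of bacteria positive for the green fluorescent reporter and its mean brightness both inhibited by 50% or more; inactive = the rest, inconclusive results apart.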

assay: blockers of AIP-driven agr signalling in S. aureus – RNAIII-GFP reporter, flow cytometry, primary screen (AID 527);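 note: 0% = AIP-stimulated control and 100% = unstimulated bacteria without AIP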; conditions: S. aureus RN6390 RNAIII-GFP reporter, AIP-induced, flow cytometry 3 h; at 2 µM; active compounds read high

Compound | inhibition
Cc1ccc(C)c(NP(C)(=O)Oc2ccccc2)c1 (centres undefined) | inactive: 0%
CCOP1(=S)c2c(C)nn(CCC#N)c2N=C(c2ccccc2F)N1C (centres undefined) | inactive: -2.8%
Cc1nn(-c2ccccc2)c2c1P(=O)(N1CCOCC1)N(C)C(c1ccccc1)=N2 (centres undefined) | inactive: 5.3%
Clc1n[nH]nc1-c1nn[nH][15n]1 | inactive: 3%
O=C(COc1ccccc1)OC1CN2CCC1CC2 (centres undefined) | inactive: -8.3%
COP1(=S)c2c(C)nn(CCC#N)c2N=C(c2ccc(F)cc2)N1C (centres undefined) | inactive: -2%
CP(=S)(Nn1cnnc1)Oc1ccccc1 (centres undefined) | inactive: -3.9%
CP(=O)(Nc1ccccn1)Oc1ccccc1 (centres undefined) | inactive: 0.4%
Cc1nc2ccc3ccccc3c2o1.O=[N+]([O-])c1cc([N+](=O)[O-])c(O)c([N+](=O)[O-])c1 | inactive: -3.1%
CCc1nc2c(n1)c1c(non1O)c1c2no[n+]1[O-] | inactive: -0.3%
O=P(Nc1nccs1)(c1ccccc1)c1ccccc1 | inactive: -0.5%
Cc1ccccc1NP(C)(=O)Nc1ccccc1C | inactive: -1.6%
CP(=O)(Nc1ccc2c(c1)OCCO2)Oc1ccccc1 (centres undefined) | inactive: 0.2%
CN(C)CCOC(=O)C(O)(c1ccccc1)C1CCCCC1 (centres undefined) | inactive: -0.5%
